In PMC3872143:

System: NNC(=O)c1ccncc1
Assay: purified protein

Mycobacterium tuberculosis catalase-peroxidase (KatG) (Mycobacterium tuberculosis H37Rv)
Km: 192 ± 8 µM | Vmax: 1.52 µM/min
